This note sets out measurements from publication PMC6191539, “NadA3 Structures Reveal Undecad Coiled Coils and LOX1 Binding Regions Competed by Meningococcus B Vaccine-Elicited Human Antibodies” (mBio, 2018).

The series concerns the molecule itself. The series can be described thus: crystal structure; X-ray, sitting-drop vapor diffusion at 20°C, 0.1 M sodium phosphate citrate pH 3.9, 5% PEG 1K, MPD; one trimer in the asymmetric unit.

B1: NadA3 […] A33I I38L double mutant (domain or fragment)
chain: not shown
notes: NadA3, N. meningitidis serogroup B strain 2996, […], […] with A33I and I38L; PDB […] is the wild-type parent of the same limits; also called NadA3 A33I-I38L
With B1, the binding result is on record as “binds”.
